Pooled drug test results. Numbers come from NIAID ChemDB, via PubChem.

Common to all: toxicity to cultured cells; cells: HepG2; measure: CC50

a–b is a range or a potency band. CCn is the concentration with n% toxicity to the cells. Neighbouring rows are from separate reports.

structure | method | result
O=C(NCc1cccs1)c1nn2c(c1Cl)N[C@H](c1ccco1)C[C@@H]2C(F)(F)F | ATP | >100 µM
Nc1ncnc2c1c(-c1cccs1)cn2[C@@H]1O[C@H](CO)[C@@H](O)[C@H]1F | XTT | >10 µM
Cc1cc(NC(=O)c2c(C3CC3)c(C(=O)C(=O)NC3CCN(c4cccnn4)CC3)n(C)c2C)ccc1F | MTT | >30 µM
CC1=C2C3B(OCCOC3C=C1)O[C@@H]2CN | resazurin / fluorescence | 971 µM
Cc1cc(NC(=O)c2c(C3CC3)c(C(=O)C(=O)NC3CCC(O)CC3)n(C)c2C)ccc1F | MTT | >30 µM
C[C@@H]1CN(c2nc3sc(C(=O)N[C@H]4C[C@@H]4C)cc3s2)CCN1C(=O)C1CC1 | fluorescence | >100 µM
O=C(c1c(F)cccc1F)N1CCN(c2cc(N3CCCCCC3)c(F)cc2[N+](=O)[O-])CC1 | luminescence | >50 µM
NS(=O)(=O)c1ccc(Oc2ccc3ccc(=O)n(CCN[C@H]4CC[C@@H]5[C@@H](C4)OC(=O)N5c4ccc5c(n4)NC(=O)CO5)c3n2)cc1 | luminescence | 10–100 µg/mL
Nc1ncnc2c1c(-c1ccco1)cn2[C@H]1O[C@H](CO)[C@@H](O)C1(F)F | XTT | >10 µM
Cc1cc(NC(=O)c2c(C)c(C(=O)C(=O)NC3CCC(S(C)(=O)=O)CC3)n(C)c2C2CCCC2)ccc1F | MTT | 5–30 µM
O=C(COc1ccc(Cl)cc1)Nc1ccc(N2CCCCC2)c(Cl)c1 | luminescence | >100 µM
CC1(C)N=C(N)N=C(N)N1OCCCOc1cc(Cl)c(Cl)cc1Cl | resazurin / fluorescence | 40 µM
Cc1cc(NC(=O)c2c(C)c(C(=O)C(=O)NC3CCC(S(C)(=O)=O)CC3)n(C)c2-c2ccccn2)ccc1F | MTT | >30 µM
CCOC(=O)c1sc(NC(=O)Cc2c(F)cccc2Cl)nc1C | luminescence | >100 µM
CNC(=O)[C@H]1CC[C@H](n2c(NC(C)C)nc3c(c2=O)C[C@@H](C)N(C(=O)c2ccc(Cl)c(C(F)(F)F)c2)C3)C1 | luminescence | >25 µM
Brc1c(-c2ccccc2)nc2ccccn12 | luminescence | >100 µM
C#Cc1ccc(C(=O)N2Cc3nc(NC(C)C)n(-c4ccc(C(=O)NC)cc4)c(=O)c3C[C@H]2C)cc1 | luminescence | >50 µM
O=C(O)c1ccc(N2C(=O)c3cccc([N+](=O)[O-])c3C2=O)cc1O | visual reading / absorbance | >100 µg/mL
C[C@H]1C[C@@H]1NC(=O)c1cc2sc(OC[C@@H]3CCOC3)nc2s1 | fluorescence | >100 µM
COc1ccc(F)cc1CNCCCNc1ccnc2cc(Cc3cc(C)cc(C)c3)ccc12 | fluorescence | 0.94 µM
Cc1ccc(OCC(=O)N2CCCc3ccccc32)cc1 | luminescence | >100 µM
Nc1ncnc2c1c(-c1ccccc1)cn2[C@H]1O[C@H](CO)[C@@H](O)C1(F)F | XTT | >10 µM
CC(C)c1ccc2[nH]c3cc(C#N)c(=O)oc3c2c1 | visual reading / absorbance | 8 µg/mL
Cc1cc(NC(=O)c2c(C)c(C(=O)C(=O)NC3CCC(S(C)(=O)=O)CC3)n(C)c2-c2ccncc2)ccc1F | MTT | >30 µM
Nc1ncnc2c1c(-c1ccsc1)cn2[C@H]1O[C@H](CO)[C@@H](O)C1(F)F | XTT | >10 µM
CCc1c(C(=O)Nc2ccc(F)c(C)c2)c(C)c(C(=O)C(=O)NC2(C)CCC(O)CC2)n1C | MTT | >30 µM
CC(C)Cc1ccc2c(NCCCNCc3ccco3)ccnc2c1 | fluorescence | 16 µM
O=C(COc1ccc(Br)cc1)N1CCN(c2ccccc2F)CC1 | luminescence | 96 µM
Nc1ncnc2c1c(-c1ccsc1)cn2[C@@H]1O[C@H](CO)[C@@H](O)C1(F)F | XTT | >10 µM
OCc1cn(-c2ccc(F)cc2)nc1-c1ccc(Cl)cc1 | luminescence | 57 µM
CCCc1cc(=O)oc2cc(N3CCN(C(=O)C(C)CC)CC3)c3c(c12)OC(C)(C)C=C3 | ATP / luminescence | >22 µg/mL
C[C@H]1C[C@@H]1NC(=O)c1cc2sc(N3CCOC(C)(C)C3)nc2s1 | fluorescence | >100 µM
COc1ccc(F)cc1CNCCCNc1ccnc2cc(Oc3ccccc3OC)ccc12 | fluorescence | 6.4 µM
COc1ccc2ccc(=O)n(CCN[C@@H]3CC[C@@H]4[C@@H](C3)OC(=O)N4c3ccc4c(n3)NC(=O)CO4)c2n1 | luminescence | >100 µg/mL
Nc1ncnc2c1c(-c1ccoc1)cn2[C@@H]1O[C@H](CO)[C@@H](O)C1(F)F | XTT | >10 µM
CCOC(=O)c1nnn(-c2nc(N3CCCC3)nc(N3CCCC3)n2)c1-c1ccccc1 | luminescence | >50 µM
COc1ccc(-c2nc3c(N)nc(N)nc3nc2C(C)C)cc1 | resazurin / fluorescence | >50 µM
CNC(=O)c1ccc(-n2c([C@H]3CC3(F)F)nc3c(c2=O)C[C@@H](C)N(C(=O)c2ccc(Cl)c(C(F)(F)F)c2)C3)cc1 | luminescence | >50 µM
COc1cccc(CNCCCNc2ccnc3cc(CC(C)C)ccc23)c1O | fluorescence | 2.92 µM
CCc1ccc2[nH]c3cc(C#N)c(=O)oc3c2c1 | visual reading / absorbance | 8 µg/mL
Cc1cc(NC(=O)c2c(C(C)C)c(C(=O)C(=O)NC3(C)CC(O)C3)n(C)c2C)ccc1F | MTT | >30 µM
NCCOc1ccc2ccc(=O)n(CCN[C@H]3CC[C@H]4[C@@H](C3)OC(=O)N4c3ccc4c(n3)NC(=O)CO4)c2n1 | luminescence | >100 µg/mL
Nc1ncnc2c1c(-c1ccc3ccccc3c1)cn2[C@@H]1O[C@H](CO)[C@@H](O)C1(F)F | XTT | >10 µM

Repeating the final 5 entries:

{"structure": "COc1cccc(CNCCCNc2ccnc3cc(CC(C)C)ccc23)c1O", "method": "fluorescence", "result": "2.92 µM"}
{"structure": "CCc1ccc2[nH]c3cc(C#N)c(=O)oc3c2c1", "method": "visual reading / absorbance", "result": "8 µg/mL"}
{"structure": "Cc1cc(NC(=O)c2c(C(C)C)c(C(=O)C(=O)NC3(C)CC(O)C3)n(C)c2C)ccc1F", "method": "MTT", "result": ">30 µM"}
{"structure": "NCCOc1ccc2ccc(=O)n(CCN[C@H]3CC[C@H]4[C@@H](C3)OC(=O)N4c3ccc4c(n3)NC(=O)CO4)c2n1", "method": "luminescence", "result": ">100 µg/mL"}
{"structure": "Nc1ncnc2c1c(-c1ccc3ccccc3c1)cn2[C@@H]1O[C@H](CO)[C@@H](O)C1(F)F", "method": "XTT", "result": ">10 µM"}